Results of unrelated studies side by side (data: NIAID ChemDB).

Shared fields: tests on isolated targets

Fold resistance has wild type as its base.

SMILES,read by,strain or isolate,target,measure,mutations,agent,tested at,value
CC(Cl)(C(=O)O)P(=O)(O)O,-,-,DNA polymerase,IC50,-,Epstein-Barr virus,-,>100 µM
Clc1ncccn1,-,RH,Uracil phosphoribosyltransferase,IC50,-,Toxoplasma gondii,-,>2000 µM
CC(C)=CCOc1cc(NC(=S)c2ccoc2C)ccc1Cl,nucleotide incorporation / radiometric,-,Reverse transcriptase,fold resistance,RT-N137Q,HIV,-,0.25
O=c1ccn([C@@H]2O[C@H](CO)[C@@H](O)[C@H]2O)c(=O)[nH]1,-,RH,Uracil phosphoribosyltransferase,IC50,-,Toxoplasma gondii,-,>2000 µM
C=CCN(C(=O)OCc1ccc([N+](=O)[O-])cc1)C1CCN(CC[C@](C)(CN(C)S(=O)(=O)c2ccccc2)c2ccccc2)CC1,radiometric,-,CCR5,IC50,CCR5-D276A,-,-,0.004 µM
O=C(Nc1nnc(NCc2cccc3ccccc23)s1)c1c(Cl)cccc1Cl,-,-,Polymerase,IC50,-,Human cytomegalovirus,-,<25 µM
O=C(O)c1c(O)cncc1O,-,RH,Uracil phosphoribosyltransferase,inhibition,-,Toxoplasma gondii,2000 µM,<5%
Nc1nc2c(ncn2[C@H]2CC[C@@H](COP(=O)(O)OP(=O)(O)OP(=O)(O)O)O2)c(=O)[nH]1,nucleotide incorporation / radiometric,-,Reverse transcriptase,IC50,RT-N137A,HIV,-,0.2 µM
O=c1cc[nH]c(=O)o1,-,RH,Uracil phosphoribosyltransferase,IC50,-,Toxoplasma gondii,-,>2000 µM
O=C(/C=C/c1ccccc1Cl)Nc1nnc(NCCN2CCCC2)s1,-,-,Polymerase,IC50,-,Human cytomegalovirus,-,>25 µM
O=c1[nH]cc(Br)c(=O)[nH]1,-,RH,Uracil phosphoribosyltransferase,IC50,-,Toxoplasma gondii,-,>2000 µM
CC(F)(C(=O)O)P(=O)(O)O,-,-,DNA polymerase,IC50,-,Epstein-Barr virus,-,>100 µM
O=c1[nH]cc(Cc2ccccc2)c(=O)[nH]1,-,RH,Uracil phosphoribosyltransferase,IC50,-,Toxoplasma gondii,-,>2000 µM
CCCCCCCC/C=C/CCCCCCCC(=O)Nc1nnc(NCCc2c[nH]c3ccccc23)s1,-,-,Polymerase,IC50,-,Human cytomegalovirus,-,<25 µM
CCN(C(=O)OCc1ccccc1)C1CCN(CC[C@](C)(CN(C)S(=O)(=O)c2ccccc2)c2ccccc2)CC1,radiometric,-,CCR5,fold resistance,CCR5-E283A,-,-,>250
CN1CCN(CCCNc2nnc(NC(=O)/C=C/c3ccccc3Cl)s2)CC1,-,-,Polymerase,IC50,-,Human cytomegalovirus,-,>25 µM
O=P(O)(O)C(Cl)P(=O)(O)O,-,-,DNA polymerase,IC50,-,Herpes simplex virus 2,-,>100 µM
NS(=O)(=O)c1ccc(CNc2nnc(NC(=O)c3ccc(I)cc3)s2)cc1,-,-,Polymerase,IC50,-,Human cytomegalovirus,-,<25 µM
CC[C@H]1C(=O)Nc2ccc(F)cc2N1C(=O)OC(C)C,nucleotide incorporation / radiometric,-,Reverse transcriptase,fold resistance,RT-N137Y,HIV,-,0.73
CCOc1ccc2ccccc2c1C(=O)Nc1nnc(NCc2ccc(F)cc2)s1,-,-,Polymerase,IC50,-,Human cytomegalovirus,-,<25 µM
O=P(O)(O)C(F)(F)P(=O)(O)O,-,-,DNA polymerase,IC50,-,Herpes simplex virus 1,-,>100 µM
O=C(Nc1nnc(NCCCNC2CCCCC2)s1)c1c(Cl)cccc1Cl,-,-,Polymerase,IC50,-,Human cytomegalovirus,-,<25 µM
O=C(C1CCCCC1)N1C[C@H](CN2CCC(c3ccccc3)CC2)[C@@H](c2ccccc2)C1,radiometric,-,CCR5,IC50,CCR5-E283A,-,-,>10 µM
CCOc1ccc2ccccc2c1C(=O)Nc1nnc(NCc2ccccn2)s1,-,-,Polymerase,IC50,-,Human cytomegalovirus,-,<25 µM
O=P(O)(O)C(Cl)(Br)P(=O)(O)O,-,-,DNA polymerase,IC50,-,Epstein-Barr virus,-,>100 µM

For reference, 2 entries again:

| SMILES | read by | strain or isolate | target | measure | mutations | agent | tested at | value |
|---|---|---|---|---|---|---|---|---|
| O=c1[nH]cc(Cc2ccccc2)c(=O)[nH]1 | - | RH | Uracil phosphoribosyltransferase | IC50 | - | Toxoplasma gondii | - | >2000 µM |
| CCN(C(=O)OCc1ccccc1)C1CCN(CC[C@](C)(CN(C)S(=O)(=O)c2ccccc2)c2ccccc2)CC1 | radiometric | - | CCR5 | fold resistance | CCR5-E283A | - | - | >250 |

Inhibition is in % at the dose shown (toxicity tests: loss of growth or viability). ICn is the concentration giving n% inhibition. Lines come from different laboratories, so protocols vary. Blank or dashed fields: not listed here.